Source: publication PMC6099630, “Synthesis, Antiviral and Cytotoxic Activity of Novel Terpenyl Hybrid Molecules Prepared by Click Chemistry” (Molecules : A Journal of Synthetic Chemistry and Natural …, 2018)

Columns and labels:
HSV-1 Field strain = test: Cytopathic effect assay, HSV-1 Field; assay type: cell-based, herpes simplex virus type 1 (HSV-1); details: selectivity index SI = CC50/CE50; CC50 on Vero cells
Description: (§1) The synthetic compounds and acyclovir (ACV, Sigma) were dissolved in dimethylsulfoxide (DMSO) and diluted with Eagle’s minimal essential medium supplemented with 1.5% inactivated fetal bovine serum (FBS) and 50 μg/mL gentamicin (MEM 1.5%).
(§2) Vero and Hep-2 cells were grown in MEM supplemented with 10% inactivated FBS and 50 µg/mL gentamicin and maintained in MEM 1.5%. Raw 264.7 cells were grown in Dulbecco’s Modified Eagle’s Medium (DMEM) supplemented with 10% FBS and 50 µg/mL gentamicin and maintained in DMEM 1.5%. C6 cells were grown in DMEM-F12 supplemented with 2.5% FBS50 µg/mL gentamicin and 15% horse serum (HS) and maintained in DMEM-F12 supplemented with 1.5% FBS. HSV-1 KOS, thymidine kinase-deficient (TK−) B2006 and Field strains of HSV-1 were used and propagated at low multiplicity of infection (m.o.i.) on Vero cells.
(§3) Cells grown in 96-well plates were infected or not with HSV-1 (KOS, Field and B2006 strains) at a m.o.i. of 0.1 PFU/cell. After 1-h adsorption at 37 °C, the inoculum was removed and medium containing or not the compounds was added, in triplicate. […] Then, cells were fixed with 10% formaldehyde for 15 min at room temperature, washed once with distilled water and stained with 0.05% crystal violet in 10% ethanol over 30 min. […] The absorbance of each well was measured on an Eurogenetics MPR-A 4i microplate reader using a test wave-length of 590 nm.

[1] = test system: HSV-1 B2006 strain (thymidine kinase-deficient, TK−); assay type: cell-based, herpes simplex virus type 1 (HSV-1); details: selectivity index SI = CC50/CE50; CC50 on Vero cells
Description: as §1, §2, §3

Structure (SMILES): Nc1nc2c(ncn2COCCO)c(=O)[nH]1 [ACV, Acyclovir]
- SI Field (HSV-1 Field strain): >13.7
- SI B2006 [1]: >20
